Pooled drug test results. Numbers come from NIAID ChemDB, via PubChem.

Common to all: counter-tests on host proteins; agent: Human

An empty or dashed field is not shown.

smiles | dose | read by | read-out | target | result
Nc1nc2c(ncn2CCOCCP(=O)(O)O)c(=O)[nH]1 |  | absorbance | Ki | Hypoxanthine-guanine phosphoribosyltransferase | 1 µM
Cn1c(=O)c2c(nc3n2CC(O)CN3c2ccc(O)cc2)n(C)c1=O |  | nucleotide incorporation | IC50 | DNA polymerase beta | 155 µM
Cc1ccc(-c2ccc3c(c2)C=C(C(=O)Nc2ccc(C[N+](C)(C)C4CCOCC4)cc2)CCC3)cc1 |  |  | IC50 | CCR2b | 0.027 µM
O=c1oc(C#Cc2ccccc2)ns1 |  | broth dilution / fluorescence | IC50 | Proteasome | 9.1 µM
COC(=O)CCCN(CCn1cnc2c(=O)[nH]c(N)nc21)CCP(=O)(O)O |  | absorbance | Ki | Hypoxanthine-guanine phosphoribosyltransferase | 0.1 µM
C=CCN(C(=O)OCc1ccccc1)C1CCN(CCC(C)(c2ccccc2)C2Nc3ccccc3S(=O)(=O)N2)CC1 |  |  | IC50 | CCR1 | >1 µM
O=c1[nH]cnc2c1ncn2[C@@H]1CNC[C@H]1OCP(=O)(O)O |  | absorbance | Ki | Hypoxanthine-guanine phosphoribosyltransferase | 5.7 µM
O=C(Cn1c(-c2cscn2)nc2ccccc21)Nc1ccc2ccccc2c1 |  | fluorescence / absorbance | IC50 | IMPDH2 | ≥40 µM
O=c1oc(/C=C/C(F)(F)F)ns1 |  | broth dilution / fluorescence | IC50 | Proteasome | 11 µM
Nc1nc2c(ncn2CCOCP(=O)(O)O)c(=O)[nH]1 |  | absorbance | Ki | Hypoxanthine-guanine phosphoribosyltransferase | 29 µM
O=C(Cn1c(-c2cscn2)nc2ccccc21)Nc1ccc(Br)cc1 |  | fluorescence / absorbance | IC50 | IMPDH2 | ≥20 µM
CC(C)=CCN1Cc2cccc3[nH]c(=S)n(c23)C[C@@H]1C |  |  | IC50 | DNA polymerase alpha | >175 µM
O=C(Cn1c(-c2nccs2)nc2ccccc21)Nc1ccc2ccccc2c1 | 5 µM | fluorescence / absorbance | inhibition | IMPDH2 | ≤10%
O=c1[nH]cnc2c1ncn2CCOCCP(=O)(O)O |  | absorbance | Ki | Hypoxanthine-guanine phosphoribosyltransferase | 3.6 µM

2 of the rows above, restated:

smiles | dose | read by | read-out | target | result
Cn1c(=O)c2c(nc3n2CC(O)CN3c2ccc(O)cc2)n(C)c1=O |  | nucleotide incorporation | IC50 | DNA polymerase beta | 155 µM
Nc1nc2c(ncn2CCOCP(=O)(O)O)c(=O)[nH]1 |  | absorbance | Ki | Hypoxanthine-guanine phosphoribosyltransferase | 29 µM

Inhibition is in % at the dose shown (toxicity tests: loss of growth or viability). Rows are shuffled and stem from different studies. ICn is the concentration giving n% inhibition.